{"source": "PubChem BioAssay AID624099, ICCB-Longwood, 2012", "assay": "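Knock-downs relieving repression by E2 of an HPV18 LCR luciferase reporter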 (primary screen)", "cell system": "human C33A cervical carcinoma cells (HPV-negative) stably expressing BPV1 E2 and an HPV18 LCR luciferase reporter", "reagent": "siRNA pool against human genes, 40 nM", "timing": "72 h", "detection": "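Per-well luciferase luminescence, z-scored on each plate against the plate mean and SD with control wells left out, then averaged across three replicate plates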", "scale": "mean z-score and z-score: higher = stronger reporter signal, weaker E2 silencing", "hit rule": "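Hit if mean z-score reaches 2 and two or more of three replicate z-scores also reach 2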", "note": "The whole screen tested about 21,000 reagents; below is an unselected part. 497 of all reagents (2.4%) were called active. 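Higher z means weaker E2 silencing; only reporter increases were scored, and knock-downs that hurt cell survival may mask genuine repressor factors.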 Entries without a mark were called inactive. Reagent sequences are not shown."}
{"gene symbol": "GNPAT", "mean z-score": 1, "z-score, replicate A": 1.18, "z-score, replicate B": 0.76, "z-score, replicate C": 1.07}
{"gene symbol": "TMEM187", "mean z-score": -1.54, "z-score, replicate A": -1.54, "z-score, replicate B": -1.39, "z-score, replicate C": -1.68}
{"gene symbol": "PRELID1P5", "mean z-score": -0.15, "z-score, replicate A": -0.38, "z-score, replicate B": -0.12, "z-score, replicate C": 0.04}
{"gene symbol": "BRMS1L", "mean z-score": -0.98, "z-score, replicate A": -0.98, "z-score, replicate B": -0.85, "z-score, replicate C": -1.11}
{"gene symbol": "FCHSD1", "mean z-score": -1.21, "z-score, replicate A": -1.66, "z-score, replicate B": -1.51, "z-score, replicate C": -0.46}

Ordered by “z-score, replicate A” (descending): 2 of the entries above
{"gene symbol": "PRELID1P5", "mean z-score": -0.15, "z-score, replicate A": -0.38, "z-score, replicate B": -0.12, "z-score, replicate C": 0.04}
{"gene symbol": "BRMS1L", "mean z-score": -0.98, "z-score, replicate A": -0.98, "z-score, replicate B": -0.85, "z-score, replicate C": -1.11}

More entries follow:
{"gene symbol": "NEUROG3", "mean z-score": 0.74, "z-score, replicate A": 0.85, "z-score, replicate B": 0.51, "z-score, replicate C": 0.85}
{"gene symbol": "CLDN1", "mean z-score": -0.42, "z-score, replicate A": -0.5, "z-score, replicate B": -0.37, "z-score, replicate C": -0.39}
{"gene symbol": "PAM", "mean z-score": -0.39, "z-score, replicate A": -0.54, "z-score, replicate B": -0.31, "z-score, replicate C": -0.3}
{"gene symbol": "LOC283530 (retired record)", "mean z-score": -1.4, "z-score, replicate A": -1.65, "z-score, replicate B": -1.61, "z-score, replicate C": -0.93}
{"gene symbol": "ACTN3", "mean z-score": -0.6, "z-score, replicate A": -0.91, "z-score, replicate B": -0.56, "z-score, replicate C": -0.31}
{"gene symbol": "LRRN4", "mean z-score": 0.28, "z-score, replicate A": 0.15, "z-score, replicate B": 0.36, "z-score, replicate C": 0.34}
{"gene symbol": "COG2", "mean z-score": 1.66, "z-score, replicate A": 1.49, "z-score, replicate B": 1.81, "z-score, replicate C": 1.66}
